From PMC6817905, “Inhibition of translation termination by small molecules targeting ribosomal release factors” (Scientific Reports, 2019)
≈ marks a conversion by molar mass, not a printed value.

Columns and labels:
[1] = tested on: Staphylococcus aureus strain ATCC29213; test: MIC on bacterial growth, wt S. aureus (broth micro-dilution); type: cell-based; settings: for MIC S. aureus wt: broth micro-dilution; for MIC S. aureus: initial screen, wt S. aureus ATCC29213
wt S. aureus = test: Time-kill assay, wt S. aureus; type: cell-based, Staphylococcus aureus; settings: 1x or 2x MIC, cell number decreased during first four hours, regrowth after about eight hours
Method: To determine if the compounds are bacteriostatic or bactericidal, time-kill assays were performed with wt S. aureus and a ΔtolC efflux-defective E. coli. The initial inoculums were diluted from triplicate biological replicates of overnight cell cultures inoculated with one colony in 1 ml MH II medium. The cell inoculum was diluted 1:1000 in 1 ml MH II medium and the cell culture was allowed to recover for 30 minutes before the compounds were added at a final concentration of 1x MIC (250 mg l^−1 for compound 115 and 125 mg l^−1 for compound 161 for both bacterial strains) or 2x MIC. As a control of the possible effect of DMSO on cell growth, the positive growth controls (three biological replicates) contained the same DMSO concentration as the cells with compound added (2x MIC). Samples (20 µl) were withdrawn before the compound was added and also after 1, 2, 4, 8 and 24 h after addition. The cells were diluted in 0.9% NaCl before they were plated on non-selective agar plates using glass beads. Colonies were counted after approximately 20 h.

Structure (SMILES) | MIC S. aureus wt [1] | MIC S. aureus [1] | Bacteriostatic or bactericidal, time-kill (wt S. aureus)
CC1CCN(Cc2csc(NC(=O)CNC(=O)c3ccc(Cl)c(Cl)c3)n2)CC1 | 250 µg/mL (≈ 566 µM) | 250 µg/mL (≈ 566 µM) | bactericidal
CC1CC(C)CN(Cc2csc(NC(=O)CNC(=O)c3ccc(C(C)(C)C)cc3)n2)C1 (stereo not drawn) | 125 µg/mL (≈ 282 µM) | 125 µg/mL (≈ 282 µM) | bactericidal
